Test results from PMC9664764 (iScience, 2022).

B1: Ab326 (antibody, V domains shown)
VH: EVQLVESGGGVVQPGRSLRLSCAASGFTFSHYPMHWVRQAPGRGLEWVAVISYDGSNQHYVDSVKGRFTISRDNSKNTLYLQMNSLRAEDTAVYFCASLITMIRGVPDYWGQGTLVTVSS
VL: DIQMTQSPSSLSASVGDRVTITCRASQSISNYLNWYQQKPGKAPNLLIFAASSLQSGVPSRFSGSGSGTEFTLTISSLQPEDFAAYYCLQTYSTPRTFGQGTRLEIK
B2: Ab354 (antibody, V domains shown)
VH: QVQLVQSGAEVKKPGASVTVSCKASGFLFTGYYMHWVRQAPGQGLEWMGWINPNSGASNYTRKFQGRVTMTRDTSISATYMKLSRLTSDDTAVYYCARDLAFSMVRGALDYWGQGTLVTVSS
VL: QLVLTQPPSASGSPGQSVTISCTGTSSDVGGYNYVSWYQHHPGKAPKLMIYEVSKRPSGVPDRFSGSKSGNTASLTVSGLQAEDEADYYCNSYAGNNNWVFGTGTKVTVL
B3: Ab496 (antibody, V domains shown)
VH: EVQLVQSGPEVKKPGTSVKVSCKASGFIFTNSAVQWVRQARGQRLEWIGWIVVGSGNPNYAQKFQERVTITRDRSTSTAYMELSSLTSEDTAVYYCAAFPYYYDNSGSGPWGQGTLVTVSS
VL: DIQLTQSPSSLSASVGDRVTITCQASQDIRNNLNWYQQIPGKAPKLLIYDASNLETGVPSRFSGSASGTDFTFTISSLQPEDVATYYCQQYANLPPFTFGPGTKVDIK

The binders below were run against RBD-SBP (SARS-CoV-2 Spike RBD, 319-541AA, SBP tag) (SARS-CoV-2, Wuhan-Hu-1 (P0DTC2), UniProt P0DTC2) (assay: SPR). Conditions: both partners purified.
B1 was tested, and the Kd was 0.0346 nM, the koff was 3e-05 s⁻¹ and the kon was 866000 M⁻¹ s⁻¹.
B2 was tested, and the Kd was 0.00534 nM, the koff was 8.44e-06 s⁻¹ and the kon was 1.58e+06 M⁻¹ s⁻¹.
Binder B3 has a Kd of 0.152 nM, a koff of 0.000193 s⁻¹ and a kon of 1.27e+06 M⁻¹ s⁻¹.
